The assay concerns the target Clostridium perfringens β-toxin (CPB), N-terminally His6-tagged wild type (Clostridium perfringens).

In general, stoichiometry N refers to the number of molecules, sites or subunits per partner or assembly. Substance “Clostridium perfringens β-toxin (CPB), N-terminally His6-tagged wild type (natural protein)” yielded a stoichiometry N of 8.

The values above are taken from paper PMC9724662, “Cryo‐EM structure of the octameric pore of Clostridium perfringens β‐toxin” (2022).
